Pooled drug test results. Numbers come from NIAID ChemDB, via PubChem.

Common to all: tests in culture; agent: HIV-1

Neighbouring rows are from separate reports. Blank or dashed fields: not listed here. ECn: concentration that inhibits the pathogen or its effect by n%.

{"smiles": "Nc1nc2c(ncn2[C@H]2CC[C@@H](CO)O2)c(=O)[nH]1", "cell line": "ATH8", "read by": "cytopathic effect / trypan blue", "endpoint": "EC50", "strain or isolate": "IIIB", "result": "<10 µM"}
{"smiles": "CC(C)(C)NC(=O)[C@@H]1CN(Cc2csc3ncccc23)CCN1C[C@@H](O)C[C@@H](Cc1ccccc1)C(=O)N[C@H]1c2ccccc2C[C@H]1O", "cell line": "MT-4", "read by": "p24", "endpoint": "EC50", "strain or isolate": "IIIB", "result": "<0.006 µM"}
{"smiles": "CCc1cn([C@@H]2O[C@H](CO[Si](C)(C)C(C)(C)C)C3(OS(=O)(=O)C=C3N)[C@H]2O[Si](C)(C)C(C)(C)C)c(=O)[nH]c1=O", "cell line": "MT-4", "read by": "cytopathic effect / trypan blue", "endpoint": "EC50", "strain or isolate": "IIIB", "result": "0.0066 µM"}
{"smiles": "CC(C)=CCN1Cc2cc(Cl)cc3[nH]c(=S)n(c23)C[C@@H]1C", "cell line": "MT-4", "read by": "cytopathic effect", "endpoint": "EC50", "strain or isolate": "IIIB", "result": "0.003 µM"}
{"smiles": "Nc1ccn([C@@H]2CO[C@H](CO)S2)c(=O)n1", "cell line": "MT-4", "read by": "cytopathic effect / MTT", "endpoint": "EC50", "strain or isolate": "MN", "result": "22 µM"}
{"smiles": "Nc1nc(=O)n([C@H]2CC[C@@H](CO)S2)cc1F", "cell line": "HeLa + HELA CD4+", "endpoint": "EC50", "strain or isolate": "IIIB", "result": ">50 µM"}
{"smiles": "CC(C)(C)NC(=O)[C@@H]1C[C@@H]2CCCC[C@@H]2CN1C[C@@H](O)[C@H](Cc1ccccc1)NC(=O)[C@H](CC(N)=O)NC(=O)c1ccc2ccccc2n1", "cell line": "MT-4", "changes": "PR-L10F M46I I84V T91S", "read by": "p24", "endpoint": "EC50", "strain or isolate": "NL4-3.C11 (PR L10F M46I I84V T91S)", "result": "0.002 µM"}
{"smiles": "Nc1ccn([C@@H]2C=C[C@H](CO)S2)c(=O)n1", "cell line": "HeLa + HELA CD4+", "endpoint": "EC50", "strain or isolate": "IIIB", "result": "0.8 µM"}
{"smiles": "NC(=O)C[C@H](NC(=O)c1ccc2ccccc2n1)C(=O)N[C@@H](Cc1ccccc1)[C@H](O)CN[C@@H](Cc1ccccc1)C(=O)N[C@H]1c2ccccc2C[C@H]1O", "cell line": "MT-4", "read by": "p24", "endpoint": "EC50", "strain or isolate": "IIIB", "result": "<0.0125 µM"}
{"smiles": "COc1ccc2cc1Oc1ccc(cc1)C[C@H]1c3c(cc4c(c3Oc3cc5c(cc3OC)CCN(C)[C@@H]5C2)OCO4)CCN1C", "cell line": "U1/HIV-1 (+PMA 10 ng/mL) + U1", "conditions": "chronic infection", "read by": "p24", "endpoint": "EC50", "result": "0.016 µg/mL"}
{"smiles": "O=C(/C=C/c1ccc(O)c(O)c1)O[C@@H]1CC(O)(C(=O)O)C[C@@H](OC(=O)/C=C/c2ccc(O)c(O)c2)C1O", "cell line": "MT-2", "endpoint": "EC50", "strain or isolate": "LAI", "result": "2 µM"}
{"smiles": "C[C@H](C/C=C/C(C)(C)O)[C@H]1CC[C@@]2(C)C3C=C[C@@]45O[C@H](O)[C@]3(CC[C@]12C)C4CC[C@H](O)C5(C)C", "cell line": "C8166", "endpoint": "EC50", "strain or isolate": "IIIB", "result": "11.1 µg/mL"}
{"smiles": "Nc1nc(=O)n([C@@H]2CC[C@H](CO)S2)cc1F", "cell line": "HeLa + HELA CD4+", "endpoint": "EC50", "strain or isolate": "IIIB", "result": ">50 µM"}
{"smiles": "CC(C)(C)NC(=O)[C@@H]1CN(Cc2ncc(-c3ccccc3)s2)CCN1C[C@@H](O)C[C@@H](Cc1ccccc1)C(=O)N[C@H]1c2ccccc2C[C@H]1O", "cell line": "MT-4", "read by": "p24", "endpoint": "EC50", "strain or isolate": "IIIB", "result": "<0.025 µM"}
{"smiles": "CC(C)[C@H](NC(=O)N(C)Cc1ccccn1)C(=O)N[C@@H](Cc1ccccc1)[C@H](O)[C@H](O)[C@H](Cc1ccccc1)NC(=O)[C@@H](NC(=O)N(C)Cc1ccccn1)C(C)C", "cell line": "MT-4", "read by": "cytopathic effect / MTT", "endpoint": "EC50", "strain or isolate": "IIIB", "result": "0.2 µM"}
{"smiles": "CC(C)(C)NC(=O)[C@@H]1CN(Cc2cnc3ccccc3c2)CCN1C[C@@H](O)C[C@@H](Cc1ccccc1)C(=O)N[C@H]1c2ccccc2C[C@H]1O", "cell line": "MT-4", "read by": "p24", "endpoint": "EC50", "strain or isolate": "IIIB", "result": "<0.025 µM"}
{"smiles": "CC(=O)C[C@@H](C)[C@H]1CC[C@@]2(C)C3C(=O)C[C@@]45OC[C@]3(CC[C@]12C)C4CCC(=O)C5(C)C", "cell line": "C8166", "endpoint": "EC50", "strain or isolate": "IIIB", "result": "21.6 µg/mL"}
{"smiles": "CC(=O)Oc1ccc(/C=C/C(=O)O[C@@H](C(=O)O)[C@@H](OC(=O)/C=C/c2ccc(OC(C)=O)c(OC(C)=O)c2)C(=O)O)cc1OC(C)=O", "cell line": "MT-4", "read by": "cytopathic effect / MTT", "endpoint": "EC50", "strain or isolate": "IIIB", "result": "4 µM"}
{"smiles": "Cc1cc2oc(CN3CCN(C[C@@H](O)C[C@@H](Cc4ccccc4)C(=O)N[C@H]4c5ccccc5C[C@H]4O)[C@H](C(=O)NC(C)(C)C)C3)cc2cn1", "cell line": "MT-4", "read by": "p24", "endpoint": "EC50", "strain or isolate": "IIIB", "result": "<0.012 µM"}
{"smiles": "CC(C)=CCN1c2cc(Cl)cc3[nH]c(=S)n(c23)C[C@@H]1C", "cell line": "MT-4", "changes": "RT-D67N K70R T215Y K219Q K103N", "endpoint": "EC95", "result": "0.8 µM"}
{"smiles": "CO[C@@H]1O[C@]23CC(=O)C4[C@@]1(CC[C@]1(C)[C@@H]([C@H](C)CC(=O)C=C(C)C)CC[C@@]41C)C2CCC(=O)C3(C)C", "cell line": "C8166", "endpoint": "EC50", "strain or isolate": "IIIB", "result": "23.7 µg/mL"}
{"smiles": "CCc1cc(-c2ccc(C(F)(F)F)o2)n(-c2ccc3c(c2)nc(-c2ccccc2O)n3CC2=CCC(=O)N=C2)n1", "read by": "luciferase", "endpoint": "EC50", "strain or isolate": "NL4-3", "result": "0.11 µM"}
{"smiles": "CCO[C@@H]1O[C@]23CC(=O)C4[C@@]1(CC[C@]1(C)[C@@H]([C@H](C)CC(C)=O)CC[C@@]41C)C2CCC(=O)C3(C)C", "cell line": "C8166", "endpoint": "EC50", "strain or isolate": "IIIB", "result": "7.2 µg/mL"}
{"smiles": "Cc1cn([C@H]2C[C@H](N=[N+]=[N-])[C@@H](CO)O2)c(=O)[nH]c1=O", "cell line": "MT-4", "read by": "cytopathic effect / MTT", "endpoint": "EC50", "strain or isolate": "IIIB", "result": "0.017 µM"}
{"smiles": "CC(C)[C@H](NC(=O)N(C)Cc1ccccn1)C(=O)N[C@@H](Cc1ccccc1)[C@@H](O)[C@H](O)[C@H](Cc1ccccc1)NC(=O)[C@@H](NC(=O)N(C)Cc1ccccn1)C(C)C", "cell line": "MT-4", "read by": "cytopathic effect / MTT", "endpoint": "EC50", "strain or isolate": "IIIB", "result": "1.54 µM"}
{"smiles": "C[C@H](CC(=O)CC(C)(C)O)[C@H]1CC[C@@]2(C)C3C(=O)C=C4C(CCC(=O)C4(C)C)[C@]3(C=O)CC[C@]12C", "cell line": "C8166", "endpoint": "EC50", "strain or isolate": "IIIB", "result": "11.4 µg/mL"}
{"smiles": "CCN1c2ncccc2N(C)C(=S)c2oc3cccnc3c21", "cell line": "MT-4", "read by": "cytopathic effect", "endpoint": "EC50", "strain or isolate": "HE", "result": "0.5 µM"}
{"smiles": "O=C(/C=C/c1ccc(O)c(O)c1)O[C@@H]1C[C@](OC(=O)/C=C/c2ccc(O)c(O)c2)(C(=O)O)C[C@@H](O)[C@H]1O", "cell line": "MT-2", "endpoint": "EC50", "strain or isolate": "LAI", "result": "4 µM"}
{"smiles": "Nc1nc(=O)n([C@H]2C=C[C@@H](CO)S2)cc1F", "cell line": "HeLa + HELA CD4+", "endpoint": "EC50", "strain or isolate": "IIIB", "result": "<50 µM"}
{"smiles": "CN1C(=O)C(c2ccc(O)cc2)C(=O)N(c2ccccc2)c2cc(C(F)(F)F)ccc21", "read by": "luciferase", "endpoint": "EC50", "strain or isolate": "NL4-3", "result": "1.1 µM"}

Repeating the first 2 entries:

smiles,cell line,changes,conditions,read by,endpoint,strain or isolate,result
Nc1nc2c(ncn2[C@H]2CC[C@@H](CO)O2)c(=O)[nH]1,ATH8,-,-,cytopathic effect / trypan blue,EC50,IIIB,<10 µM
CC(C)(C)NC(=O)[C@@H]1CN(Cc2csc3ncccc23)CCN1C[C@@H](O)C[C@@H](Cc1ccccc1)C(=O)N[C@H]1c2ccccc2C[C@H]1O,MT-4,-,-,p24,EC50,IIIB,<0.006 µM